Anti-infective test results gathered from many reports (values: NIAID ChemDB through PubChem).

Common to all: target-level tests; species: HIV-1; protein: Reverse transcriptase; method: nucleotide incorporation / radiometric; read-out: fold resistance

Two numbers with a dash give a range or band. Lines come from different laboratories, so protocols vary. Fold resistance has wild type as its base.

C=C(CC(=O)O)c1ccc(OCCc2cnc3c(c2)C(=O)N(C)c2cccnc2N3CC)c2ccccc12 ; changes: RT-K103N Y181C ; result: 1–10
Cc1cn([C@H]2C=C[C@@H](COP(=O)(O)OP(=O)(O)OP(=O)(O)O)O2)c(=O)[nH]c1=O ; changes: RT-L74V ; result: 1.11
CCC1(c2cccc(I)c2)Oc2ccccc2-n2cccc2C1=O ; changes: RT-Y188L ; result: >200
Nc1ccn([C@H]2C[C@H](O)[C@@H](COP(=O)(O)OP(=O)(O)OP(=O)(O)O)O2)c(=O)n1 ; changes: RT-T215Y ; result: 0.27
Cc1cn([C@H]2C=C[C@@H](COP(=O)(O)OP(=O)(O)OP(=O)(O)O)O2)c(=O)[nH]c1=O ; changes: RT-V106A P225H ; result: 1.4
CCC1(c2ccc(CNc3cccc(F)c3)cc2)Oc2ccccc2-n2cccc2C1=O ; changes: RT-K103N ; result: 5.75
CCOCn1c(Cc2ccccc2)c(C(C)C)c(=O)[nH]c1=O ; changes: RT-P225H ; result: 7.3
Nc1ncnc2c1ncn2CCOCP(=O)(O)OP(=O)(O)OP(=O)(O)O ; changes: RT-T215Y ; result: 1.24
CCC1(c2cccc(Cl)c2)Cc2ccccc2-n2cccc2C1=O ; changes: RT-Y188L ; result: >3
CC(C)=CCN1Cc2cc(Cl)cc3[nH]c(=O)n(c23)C[C@@H]1C ; changes: RT-P225H ; result: 2
CCC1(c2ccc(COc3ccccc3)cc2)Oc2ccccc2-n2cccc2C1=O ; changes: RT-Y181I ; result: 4.6
Nc1ccn([C@H]2CC[C@@H](COP(=O)(O)OP(=O)(O)OP(=O)(O)O)O2)c(=O)n1 ; changes: RT-V106A P225H ; result: 0.72
CCN1c2ncc(CCOc3ccc(C(=O)O)c4ccccc34)cc2C(=O)N(C)c2ccc(Cl)nc21 ; changes: RT-Y188L ; result: 1–10
CCOc1cccc(C2(CC)Oc3ccccc3-n3cccc3C2=O)c1 ; changes: RT-Y188L ; result: 1
CCN1c2ncc(CCOc3ccc(C(=O)O)c4c3CCCC4)cc2C(=O)N(C)c2cccnc21 ; changes: RT-Y188L ; result: >10
CCC1(c2ccc(CNc3ccccc3)cc2)Oc2ccccc2-n2cccc2C1=O ; changes: RT-V106A ; result: 13.3
Nc1ccn([C@@H]2CS[C@H](COP(=O)(O)OP(=O)(O)OP(=O)(O)O)O2)c(=O)n1 ; changes: RT-T215Y ; result: 2.6
CCN1c2ncc(CCOc3cccc4c3CCCN4CC(=O)O)cc2C(=O)N(C)c2cccnc21 ; changes: RT-V106A ; result: >10
Cc1cn([C@H]2C=C[C@@H](COP(=O)(O)OP(=O)(O)OP(=O)(O)O)O2)c(=O)[nH]c1=O ; changes: RT-E138A ; result: 0.8
CCC1(c2ccc(COc3cccnc3)cc2)Oc2ccccc2-n2cccc2C1=O ; changes: RT-Y188L ; result: 9.75
CCN1c2ncc(CCOc3ccc(CCC(=O)NN)c4ccccc34)cc2C(=O)N(C)c2cccnc21 ; changes: RT-V106A ; result: 1–10

3 of the rows above, restated:

smiles,changes,result
Nc1ncnc2c1ncn2CCOCP(=O)(O)OP(=O)(O)OP(=O)(O)O,RT-T215Y,1.24
CCOCn1c(Cc2ccccc2)c(C(C)C)c(=O)[nH]c1=O,RT-P225H,7.3
Nc1ccn([C@@H]2CS[C@H](COP(=O)(O)OP(=O)(O)OP(=O)(O)O)O2)c(=O)n1,RT-T215Y,2.6